Test results from article PMC6345968, “Structural basis for species-selective targeting of Hsp90 in a pathogenic fungus” (Nature Communications, 2019).

How the values were obtained:
Assay in all cases: Broth microdilution growth inhibition, Hsp90 variant yeast
Assay type in all cases: cell-based, Saccharomyces cerevisiae
[1] = system: S. cerevisiae expressing C. albicans Hsp90 Leu130Ala/Phe131Tyr
Excerpt: (§1) We tested their importance by generating three C. albicans Hsp90 variants with the native fungal residues changed to their corresponding human residues (Fig. 5a, b). The first variant was a single substitution, replacing fungal threonine with human glutamine at position 12 (Thr12Gln) located between the N-terminal β-strand and α-helix. […] The second variant involved two amino acid changes within α-helix 7 (Leu130Ala and Phe131Tyr) which were predicted to impact contact with the para-methoxybenzyl substituent.
(§2) Antifungal tolerance and resistance were determined in flat bottom, 96-well microtiter plates using a modified broth microdilution protocol as described[8],[10]. All Hsp90 inhibitors were formulated in dimethyl sulfoxide (DMSO, Sigma Aldrich Co.); fluconazole was dissolved in sterile ddH2O. Each strain was tested in duplicate on at least two occasions. […] To test for fungicidal activity, cultures from MIC plates were spotted on YPD agar plates using a spotter (Frogger, V&P Scientific, Inc). Plates were photographed after 48 h of incubations at 30 °C.

[2] = system: S. cerevisiae expressing C. albicans Hsp90 Lys158Ser/Thr162Arg
Excerpt: as §1, §2

[3] = system: S. cerevisiae expressing C. albicans Hsp90 Thr12Gln
Excerpt: as §1, §2

## C[C@@H]1C[C@H]2O[C@@H]2/C=C\C=C\C(=O)Cc2c(Cl)c(O)cc(O)c2C(=O)O1 [radicicol, reference compound]
[1]
  change of potency relative to wild-type C. albicans Hsp90: increased potency
[2]
  change of potency relative to wild-type C. albicans Hsp90: did not alter the potency
[3]
  change of potency relative to wild-type C. albicans Hsp90: did not alter the potency
